Molecules are shown by their SMILES.

The subject of this assay is MERS-CoV. As to the kind of experiment: Plaque reduction assay. Particulars: 10 μM peptide mixed with MERS-CoV for 30 min; Vero cells; counted four days after infection. It counts as cell-based, MERS-CoV (CoV/KOR/KNIH/002_05_2015) in Vero cells.
For `CC[C@H](C)[C@H](NC(=O)[C@H](Cc1ccc(O)cc1)NC(=O)[C@H](CO)NC(=O)[C@H](CCC(=O)O)NC(=O)[C@H](CC(N)=O)NC(=O)[C@H](CC(C)C)NC(=O)[C@H](CCCCN)NC(=O)[C@H](CCCCN)NC(=O)[C@@H](NC(=O)[C@@H](NC(=O)[C@H](CCC(=O)O)NC(=O)[C@H](CCC(=O)O)NC(=O)[C@H](CC(C)C)NC(=O)[C@H](CO)NC(=O)[C@H](CCCNC(=N)N)NC(=O)[C@H](CCSC)NC(=O)[C@H](CCC(=O)O)NC(=O)[C@H](Cc1ccc(O)cc1)NC(=O)[C@H](CCC(=O)O)NC(=O)[C@H](CC(C)C)NC(=O)[C@H](CC(=O)O)NC(=O)[C@H](CC(C)C)NC(=O)[C@H](CC(C)C)NC(=O)[C@@H](NC(=O)[C@@H](NC(=O)[C@H](CC(N)=O)NC(=O)[C@@H](NC(=O)[C@H](CCC(N)=O)NC(=O)[C@@H](NC(=O)[C@H](CC(C)C)NC(=O)[C@@H](N)CO)[C@@H](C)O)[C@@H](C)CC)[C@@H](C)O)[C@@H](C)O)C(C)C)C(C)C)C(=O)N[C@@H](CC(=O)O)C(=O)N[C@@H](CCC(=O)O)C(=O)N[C@@H](CCCCN)C(=O)N[C@@H](CCC(=O)O)C(=O)N[C@@H](CC(C)C)C(=O)O`, the “# Plaques” value came out at 48.
For `CC[C@H](C)[C@H](NC(=O)[C@H](Cc1ccc(O)cc1)NC(=O)[C@H](CO)NC(=O)[C@H](CCC(=O)O)NC(=O)[C@H](CC(N)=O)NC(=O)[C@H](CC(C)C)NC(=O)[C@H](C)NC(=O)[C@H](CCCCN)NC(=O)[C@@H](NC(=O)[C@@H](NC(=O)[C@H](CCC(N)=O)NC(=O)[C@H](CCC(N)=O)NC(=O)[C@H](CC(C)C)NC(=O)[C@H](CO)NC(=O)[C@H](CCCNC(=N)N)NC(=O)[C@H](CCSC)NC(=O)[C@H](CCC(=O)O)NC(=O)[C@H](Cc1ccc(O)cc1)NC(=O)[C@H](CCC(=O)O)NC(=O)[C@H](CC(C)C)NC(=O)[C@H](CC(=O)O)NC(=O)[C@H](CC(C)C)NC(=O)[C@H](CC(C)C)NC(=O)[C@@H](NC(=O)[C@@H](NC(=O)[C@H](CC(N)=O)NC(=O)[C@@H](NC(=O)[C@H](CCC(N)=O)NC(=O)[C@@H](NC(=O)[C@H](CC(C)C)NC(=O)[C@@H](N)CO)[C@@H](C)O)[C@@H](C)CC)[C@@H](C)O)[C@@H](C)O)C(C)C)C(C)C)C(=O)N[C@@H](CC(=O)O)C(=O)N[C@@H](CC(C)C)C(=O)N[C@@H](CCCCN)C(=O)N[C@@H](CCC(=O)O)C(=O)N[C@@H](CC(C)C)C(=O)O`, the “# Plaques” value is on record as 81.
For `CC[C@H](C)[C@H](NC(=O)[C@H](Cc1ccc(O)cc1)NC(=O)[C@H](CO)NC(=O)[C@H](CCC(=O)O)NC(=O)[C@H](CC(N)=O)NC(=O)[C@H](CC(C)C)NC(=O)[C@H](CCCCN)NC(=O)[C@H](CCCCN)NC(=O)[C@@H](NC(=O)[C@@H](NC(=O)[C@H](CCC(=O)O)NC(=O)[C@H](CCC(=O)O)NC(=O)[C@H](CC(C)C)NC(=O)[C@H](CO)NC(=O)[C@H](CCCNC(=N)N)NC(=O)[C@H](CCSC)NC(=O)[C@H](CCC(=O)O)NC(=O)[C@H](Cc1ccc(O)cc1)NC(=O)[C@H](CCC(=O)O)NC(=O)[C@H](CC(C)C)NC(=O)[C@H](CC(=O)O)NC(=O)[C@H](CC(C)C)NC(=O)[C@H](CC(C)C)NC(=O)[C@@H](NC(=O)[C@@H](NC(=O)[C@H](CC(N)=O)NC(=O)[C@@H](NC(=O)[C@H](CCC(N)=O)NC(=O)[C@@H](NC(=O)[C@H](CC(C)C)NC(=O)[C@@H](N)CO)[C@@H](C)O)[C@@H](C)CC)[C@@H](C)O)[C@@H](C)O)C(C)C)C(C)C)C(=O)N[C@@H](CC(=O)O)C(=O)N[C@@H](CC(C)C)C(=O)N[C@@H](CCCCN)C(=O)N[C@@H](CCC(=O)O)C(=O)N[C@@H](CC(C)C)C(=O)O` the value was 46; for `CC[C@H](C)[C@H](NC(=O)[C@H](Cc1ccc(O)cc1)NC(=O)[C@H](CO)NC(=O)[C@H](CCC(=O)O)NC(=O)[C@H](CC(N)=O)NC(=O)[C@H](CC(C)C)NC(=O)[C@H](C)NC(=O)[C@H](CCCCN)NC(=O)[C@@H](NC(=O)[C@@H](NC(=O)[C@H](CCC(N)=O)NC(=O)[C@H](CCC(N)=O)NC(=O)[C@H](CC(C)C)NC(=O)[C@H](CO)NC(=O)[C@H](CCCCN)NC(=O)[C@H](CCSC)NC(=O)[C@H](CCC(=O)O)NC(=O)[C@H](Cc1ccc(O)cc1)NC(=O)[C@@H](NC(=O)[C@H](CC(C)C)NC(=O)[C@H](CC(=O)O)NC(=O)[C@H](CC(C)C)NC(=O)[C@H](CC(C)C)NC(=O)[C@@H](NC(=O)[C@@H](NC(=O)[C@H](CC(N)=O)NC(=O)[C@@H](NC(=O)[C@H](CCC(N)=O)NC(=O)[C@@H](NC(=O)[C@H](CC(C)C)NC(=O)[C@@H](N)CO)[C@@H](C)O)[C@@H](C)CC)[C@@H](C)O)[C@@H](C)O)[C@@H](C)O)C(C)C)C(C)C)C(=O)N[C@@H](CC(=O)O)C(=O)N[C@@H](CC(C)C)C(=O)N[C@@H](CCCCN)C(=O)N[C@@H](CCC(=O)O)C(=O)N[C@@H](CC(C)C)C(=O)O`, 55; for `CC[C@H](C)[C@H](NC(=O)[C@H](Cc1ccc(O)cc1)NC(=O)[C@H](Cc1ccc(O)cc1)NC(=O)[C@H](CCC(=O)O)NC(=O)[C@H](CC(N)=O)NC(=O)[C@H](CC(C)C)NC(=O)[C@H](C)NC(=O)[C@H](CCCCN)NC(=O)[C@@H](NC(=O)[C@@H](NC(=O)[C@H](CCC(N)=O)NC(=O)[C@H](CCC(N)=O)NC(=O)[C@H](CC(C)C)NC(=O)[C@H](CO)NC(=O)[C@H](CCC(=O)O)NC(=O)[C@H](CCSC)NC(=O)[C@H](CCC(=O)O)NC(=O)[C@H](Cc1ccc(O)cc1)NC(=O)[C@@H](NC(=O)[C@H](CC(C)C)NC(=O)[C@H](CC(=O)O)NC(=O)[C@H](CC(C)C)NC(=O)[C@H](CC(C)C)NC(=O)[C@@H](NC(=O)[C@H](Cc1c[nH]c2ccccc12)NC(=O)[C@H](CC(N)=O)NC(=O)[C@@H](NC(=O)[C@H](CCC(N)=O)NC(=O)[C@@H](NC(=O)[C@H](CC(C)C)NC(=O)[C@@H](N)CO)[C@@H](C)O)[C@@H](C)CC)[C@@H](C)O)[C@@H](C)O)C(C)C)C(C)C)C(=O)N[C@@H](CC(=O)O)C(=O)N[C@@H](CC(C)C)C(=O)N[C@@H](CCCCN)C(=O)N[C@@H](CCC(=O)O)C(=O)N[C@@H](CC(C)C)C(=O)O` [Peptide 5], 31.
For `CC[C@H](C)[C@H](NC(=O)[C@H](Cc1ccc(O)cc1)NC(=O)[C@H](Cc1ccc(O)cc1)NC(=O)[C@H](CCC(=O)O)NC(=O)[C@H](CC(N)=O)NC(=O)[C@H](CC(C)C)NC(=O)[C@H](C)NC(=O)[C@H](CCCCN)NC(=O)[C@H](CCSC)NC(=O)[C@@H](NC(=O)[C@H](CCC(N)=O)NC(=O)[C@H](CCC(N)=O)NC(=O)[C@H](CC(C)C)NC(=O)[C@H](CO)NC(=O)[C@H](CCC(=O)O)NC(=O)[C@H](CCSC)NC(=O)[C@H](CCC(=O)O)NC(=O)[C@H](Cc1ccc(O)cc1)NC(=O)[C@@H](NC(=O)[C@H](CC(C)C)NC(=O)[C@H](CC(=O)O)NC(=O)[C@H](CC(C)C)NC(=O)[C@H](CC(C)C)NC(=O)[C@@H](NC(=O)[C@H](Cc1c[nH]c2ccccc12)NC(=O)[C@H](CC(N)=O)NC(=O)[C@@H](NC(=O)[C@H](CCC(N)=O)NC(=O)[C@@H](NC(=O)[C@H](CC(C)C)NC(=O)[C@@H](N)CO)[C@@H](C)O)[C@@H](C)CC)[C@@H](C)O)[C@@H](C)O)C(C)C)C(=O)N[C@@H](CC(=O)O)C(=O)N[C@@H](CC(C)C)C(=O)N[C@@H](CCCCN)C(=O)N[C@@H](Cc1c[nH]cn1)C(=O)N[C@@H](CC(C)C)C(=O)O`, the “# Plaques” value is 55.
In the case of `CC[C@H](C)[C@H](NC(=O)[C@H](Cc1ccc(O)cc1)NC(=O)[C@H](CO)NC(=O)[C@H](CCC(=O)O)NC(=O)[C@H](CC(N)=O)NC(=O)[C@H](CC(C)C)NC(=O)[C@H](C)NC(=O)[C@H](CCCCN)NC(=O)[C@@H](NC(=O)[C@@H](NC(=O)[C@H](CCC(=O)O)NC(=O)[C@H](CCC(=O)O)NC(=O)[C@H](CC(C)C)NC(=O)[C@H](CO)NC(=O)[C@H](CCCNC(=N)N)NC(=O)[C@H](CCSC)NC(=O)[C@H](CCC(=O)O)NC(=O)[C@H](Cc1ccc(O)cc1)NC(=O)[C@H](CCC(=O)O)NC(=O)[C@H](CC(C)C)NC(=O)[C@H](CC(=O)O)NC(=O)[C@H](CC(C)C)NC(=O)[C@H](CC(C)C)NC(=O)[C@@H](NC(=O)[C@@H](NC(=O)[C@H](CC(N)=O)NC(=O)[C@@H](NC(=O)[C@H](CCC(N)=O)NC(=O)[C@@H](NC(=O)[C@H](CC(C)C)NC(=O)[C@@H](N)CO)[C@@H](C)O)[C@@H](C)CC)[C@@H](C)O)[C@@H](C)O)C(C)C)C(C)C)C(=O)N[C@@H](CC(=O)O)C(=O)N[C@@H](CC(C)C)C(=O)N[C@@H](CCCCN)C(=O)N[C@@H](CCC(=O)O)C(=O)N[C@@H](CC(C)C)C(=O)O`, the “# Plaques” value came out at 59.
The figure for `CC[C@H](C)[C@H](NC(=O)[C@H](Cc1ccc(O)cc1)NC(=O)[C@H](CO)NC(=O)[C@H](CCC(=O)O)NC(=O)[C@H](CC(N)=O)NC(=O)[C@H](CC(C)C)NC(=O)[C@H](C)NC(=O)[C@H](CCCCN)NC(=O)[C@@H](NC(=O)[C@@H](NC(=O)[C@H](CCC(N)=O)NC(=O)[C@H](CCC(N)=O)NC(=O)[C@H](CC(C)C)NC(=O)[C@H](CO)NC(=O)[C@H](CC(C)C)NC(=O)[C@H](CCSC)NC(=O)[C@H](CCC(=O)O)NC(=O)[C@H](Cc1ccc(O)cc1)NC(=O)[C@@H](NC(=O)[C@H](CC(C)C)NC(=O)[C@H](CC(=O)O)NC(=O)[C@H](CC(C)C)NC(=O)[C@H](CC(C)C)NC(=O)[C@@H](NC(=O)[C@@H](NC(=O)[C@H](CC(N)=O)NC(=O)[C@@H](NC(=O)[C@H](CCC(N)=O)NC(=O)[C@@H](NC(=O)[C@H](CC(C)C)NC(=O)[C@@H](N)CO)[C@@H](C)O)[C@@H](C)CC)[C@@H](C)O)[C@@H](C)O)[C@@H](C)O)C(C)C)C(C)C)C(=O)N[C@@H](CC(=O)O)C(=O)N[C@@H](CC(C)C)C(=O)N[C@@H](CCCCN)C(=O)N[C@@H](CCC(=O)O)C(=O)N[C@@H](CC(C)C)C(=O)O` is 55.

The record behind these values is patent US10975126B1 (priority 2020, dated 2021).
